According to patent US7439052B2, “Method of making modified immunodeficiency virus particles” (Lipid Sciences, priority 2000, dated 2008):

Tests used:
Format in all cases: physicochemical
[1] = Isopycnic sucrose gradient and Western blot of delipidated HIV-1
[2] = Isopycnic density gradient of delipidated SIV-mac 251
Protocol: Virus density profiles were evaluated by subjecting them to isopycnic gradient centrifugation. Briefly, 1.3 ml each of 20%-60% sucrose in phosphate buffered saline (PBS) was overplayed, with 8% increments in sucrose concentrations. Six sucrose concentrations were layered, from 60% sucrose at the bottom, to 20% sucrose at the top. Virus samples (prepared after pelleting through a 20% sucrose cushion) in 750 μl PBS were carefully over-layed on top of the 20% sucrose. All tubes were spun in an 80Ti rotor for the Beckman L8 Ultracentrifuge at 40,000 rpm, and at 4° C. for 16 h. Starting from the top, 17 fractions of 525 μl per tube were collected. Virus concentrations were analyzed using a commercial SIV Gag p27 ELISA kit (Coulter, Calif.).
In FIG. 3, an isopycnic gradient analysis of delipidated HIV, indicated by a graphing of percent of total recovered p24 protein against fraction number, is shown. A substantial amount of the total recovered p24 protein for the samples subjected to delipidation processes is found at higher densities. […] That density shift is further shown in FIG. 4 where the isopycnic density of SIV-mac 251, indicated by a graphic of gag p27 concentration against fraction number, is depicted.

[3] = Cholesterol and protein levels in delipidated HIV; conditions: for Protein / Chol.: HIV purified on 20% sucrose; for Chol.: Amplex Red assay; for % of Control: HIV, cholesterol relative to control; for Chol./protein: cholesterol to total protein ratio
Protocol: HIV was delipidated and purified on 20% sucrose. Cholesterol was measured with Amplex Red assay, a commercially available bioassay from vendors such as Molecular Probes, Inc., and total protein was measured.

[4] = Cholesterol and Gag p27 in delipidated SIV
Protocol: SIV was delipidated and purified on 20% sucrose. Cholesterol was measured with Amplex Red assay and Gag p27 protein measured. Data is expressed as cholesterol to Gag p27 protein ratio. DIPE treated virus had 80% less cholesterol than control, indicating effective delipidation. Similarly, relative to the control, the 1% DIPE sample has a decreased cholesterol to protein ratio. 1% DIPE treatment effectively removed 80% cholesterol while maintaining the structural integrity of the virus measured by the p27 recovery. […] This method was too harsh. […] Referring to FIGS. 5 and 6, FPLC profiles of fractionated SIV-mac251 are shown for Gag p27 and cholesterol.

| Substance | Western blot (gp120, p24) of sucrose density fractions, density of viral particles [1] | isopycnic density relative to control (gag p27 against fraction number) [2] | Protein [3] | Chol. [3] | % of Control [3] | Chol./protein [3] | outcome of delipidation treatment of SIV [4] |
| --- | --- | --- | --- | --- | --- | --- | --- |
| 1% Butanol | shift of immunoreactive bands to higher density fractions | shift in density | 82.08 µg/mL | 5.52 µg/mL | 45.90% | 0.06 | not effective at delipidating the virus |
| 2% Butanol | loss of many proteins, including a decrease in p24 protein and gp120 protein, and an increase in density of the viral particles | – | 80.53 µg/mL | 5.14 µg/mL | 43.54% | 0.06 | – |
